Experimental data published in publication PMC11784200, “Insights into antibiotic resistance promoted by quinolone exposure” (Antimicrobial Agents and Chemotherapy, 2024).

System: E. coli MLS83L
Test: QIAR assay, quinolone-resistant strain
Conditions: MLS83L at sub-MIC levels of CIP for this strain

O=C(O)c1cn(C2CC2)c2cc(N3CCNCC3)c(F)cc2c1=O [CIP, ciprofloxacin]
KAN resistance frequency, times lower than the wild type: approximately 100 times
